Biological target: RBD
Assay: BLI

Substance	Kd
CV30	8.8 nM
CR3022	18.7 nM

— patent US20250002907A1
